Data on one compound can be found in US20080047904A1, “Treatment for Hydrostatic Testing Water” (priority 2004, published 2008).

The data set is described as follows: Corrosivity by Linear Polarization Resistance (LPR) in synthetic seawater. It is filed as physicochemical.

`O=CCCCC=O` [Glutaraldehyde, glutaraldehyde]: the “corrosion rate (LPR)” value was determined as 5.3 mpy (600 ppm glutaraldehyde, 60° C., Aerated synthetic seawater); 4.8 mpy (600 ppm glutaraldehyde, 60° C., Deaerated synthetic seawater); 6.4 mpy (600 ppm glutaraldehyde, Room temp., Aerated synthetic seawater); 0.6 mpy (600 ppm glutaraldehyde, Room temp., Deaerated synthetic seawater); 8.8 mpy (1200 ppm glutaraldehyde, 60° C., Aerated synthetic seawater); 5.5 mpy (1200 ppm glutaraldehyde, 60° C., Deaerated synthetic seawater). For the same compound, the “corrosion rate (LPR)” value is listed as 9.2 mpy (1200 ppm glutaraldehyde, Room temp., Aerated synthetic seawater) and 1.4 mpy (1200 ppm glutaraldehyde, Room temp., Deaerated synthetic seawater).
